Data as given in PMC3788043 (Journal of the American Society for Mass Spectrometry, 2013).

Key:
[1] = biological target: urease (UreABC)3 of the Strep-tag II (UreABC)3:UreDFG complex (Klebsiella aerogenes); assay: native MS
SEC = biological target: the molecule itself; assay: SEC

B1: UreDFG with UreG fused to Strep-tag II (complex, Klebsiella aerogenes)
chain 1: MLPPLKKGWQATLDLRFHQAGGKTVLASAQHVGPLTVQRPFYPEEETCHLYLLHPPGGIVGGDELTISAHLAPGCHTLITMPGASKFYRSSGAQALVRQQLTLAPQATLEWLPQDAIFFPGANARLFTTFHLCASSRLLAWDLLCLGRPVIGETFSHGTLSNRLEVWVDNEPLLVERLHLQEGELSSIAERPWVGTLLCYPATDALLDGVRDALAPLGLYAGASLTDRLLTVRFLSDDNLICQRVMRDVWQFLRPHLTGKSPVLPRIWLT
chain 2: MSTAEQRLRLMQLASSNLPVGGYSWSQGLEWAVEAGWVLDVAAFERWQRRQMTEGFFTVDLPLFARLYRACEQGDIAAAQRWTAYLLACRETRELREEERNRGAAFARLLSDWQPDCPPPWRSLCQQSQLAGMAWLGVRWRIALPEMALSLGYSWIESAVMAGVKLVPFGQQAAQQLILRLCDHYAAEMPRALAAPDGDIGSATPLAAIASARHETQYSRLFRS
chain 3: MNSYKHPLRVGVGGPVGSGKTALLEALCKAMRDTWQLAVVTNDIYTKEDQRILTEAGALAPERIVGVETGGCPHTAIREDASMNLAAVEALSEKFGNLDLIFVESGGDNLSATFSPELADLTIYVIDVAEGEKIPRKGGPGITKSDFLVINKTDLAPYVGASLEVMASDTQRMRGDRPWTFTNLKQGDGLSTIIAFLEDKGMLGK
B1 was tested, and the “stoichiometry N” value [1] was 2.

B2: (MBP-UreD:UreF:UreG)2 accessory protein complex (complex, Klebsiella aerogenes)
chain 1: B1 chain 1
chain 2: B1 chain 2
chain 3: B1 chain 3
B2 was tested, and the “stoichiometry N” value (SEC) was 2.
